The values below come from US20170298395A1, “AUTOTROPHIC HYDROGEN BACTERIA AND USES THEREOF” (Ohio State Innovation Foundation, priority 2011, published 2017).

The subject of this series is Ralstonia eutropha.

As to n-butanol, the “butanol concentration above which growth was not seen” value is reported as “above 0.6 % butanol (v/v)”, the “butanol tolerance of isolates compared to wild type” value was “over a six fold increase” and the “butanol tolerated before growth was affected” value was “about 0.8%”.
